From paper PMC11883740, “N-Terminal Protein Binding and Disorder-to-Order Transition by a Synthetic Receptor” (2025) come the findings set out here.

The target in the assay is MKA-RSL (Ralstonia solanacearum lectin with N-terminal Met-Lys-Ala extension) (Ralstonia solanacearum). Nature of the assay: crystal structure.

On to “MKA-RSL (Ralstonia solanacearum lectin with N-terminal Met-Lys-Ala extension) (natural protein)”, for which the stoichiometry N (in general, a count of units in the complex or per binding partner) came to 3.
